A mixed list of measured activities; the numbers were collected in NIAID ChemDB.

All rows: growth or infection tests; organism: Hepatitis B virus; measure: EC50

Blank or dashed fields: not listed here. Two numbers with a dash give a range or band. Neighbouring rows are from separate reports. ECn: concentration that inhibits the pathogen or its effect by n%.

compound	cells	strain or isolate	value
CCC1=C(C(=O)OC)C(c2ccccc2Cl)N=C(c2ccccn2)N1	HepG2.2.15	-	6–10 µM
Cc1cc(NC(=O)c2c(C)noc2C)ccc1F	HepG2.2.15	-	0.2 µM
CCOC(=O)c1c(CS(=O)c2ccccc2)n(C)c2cc(Br)c(O)c(Cn3ccnc3C)c12	2.2.15	-	22.49 µg/mL
O=c1[nH]c(=O)n(COCCO)cc1CO	D88	Mutations L180M M204V	30 µM
CC(=O)O[C@H]1CC[C@]2(C)[C@H]3C(=O)C=C4[C@@H]5C[C@@](C)(C(=O)O)CC[C@]5(C)CC[C@@]4(C)[C@]3(C)CC[C@H]2C1(C)C	HepG2.2.15	-	20.86 µM
CCCCNc1cc(OC)c2cc(C(=O)OC)[nH]c2c1	-	-	9.54 µg/mL
CNc1ncnc2c1ncn2[C@H]1CC(F)[C@@H](CO)O1	HepG2 2.2.15	-	>200 µM
CSc1ncc(C(=O)NCCO)c(Nc2ccc3[nH]ncc3c2)n1	HepG2.2.15	-	<0.1 µg/mL
Nc1nc2c(ncn2COCCOP(=O)(O)OP(=O)(O)OP(=O)(O)O)c(=O)[nH]1	2.2.15	-	>100 µM
CSc1ncc(C(=O)NCCc2ccccn2)c(Nc2ccc3cn[nH]c3c2)n1	HepG2.2.15	-	<0.1 µg/mL
Nc1ncnc2c1ncn2C[C@H]1C[C@H]1CO	2.2.15	-	>10 µM
COC(=O)Cc1ccc2c(OC)cc(N)cc2n1	-	-	0.13 µg/mL
O=C1c2cc3ccc4c(c3c(-c3ccc5c(c3)OCO5)c2CN1CCCO)OCO4	-	-	0.9 µM
COC(=O)C1=C(CN2CCN(c3ncccn3)CC2)NC(c2ncc(F)cc2F)=N[C@H]1c1ccc(F)cc1Cl	HepG2.2.15	-	0.03 µM
CCc1cn(COCCO)c(=S)[nH]c1=O	B1	Mutation M204I	20 µM
CSc1ncc(C(=O)N(C)CCO)c(Nc2ccc3[nH]ncc3c2)n1	HepG2.2.15	-	~0.1 µg/mL
COC(=O)C1=C(CN2CC3CC[C@H](C2)O3)NC(c2ncc(F)cc2F)=N[C@H]1c1ccc(F)cc1Cl	HepG2.2.15	-	0.075 µM
Nc1ncc(Cl)c2c1ncn2[C@@H]1C[C@H](O)[C@@H](O)[C@H]1O	HepG2.2.15	-	>10 µM
O=c1[nH]cnc2c1ncn2C[C@H]1C[C@H]1[C@H](O)CO	2.2.15	-	>10 µM
N#CCCC1C(=O)c2ccc(-c3cccc(C#N)c3)cc2OC12CCCC2	HepG2.2.15	-	0.03 µM
COc1cc(N)cc2nc(N)cc(OC)c12	-	-	0.19 µg/mL
COC(=O)C(C)(C)NP(=O)(OC[C@H]1O[C@@H](n2cnc3c(N)ncnc32)CC1F)Oc1ccccc1	HepG2 2.2.15	-	0.007 µM
Nc1nc(Cl)c2ncn(/C=C3/C[C@H]3CO)c2n1	2.2.15	-	>10 µM
Nc1ncnc2c1ccn2[C@H]1CC(F)[C@@H](CO)O1	HepG2 2.2.15	-	117 µM
Nc1ccn([C@H]2CS[C@H](CO)O2)c(=O)n1	CEM	-	>5 µM
Nc1ccn([C@@H]2CS[C@H](CO)O2)c(=O)n1	HepG2.2.15	-	0.22 µM
O=c1[nH]c(=O)n(COCCO)cc1C(F)(F)F	B1	Mutation M204I	53 µM
Cc1cn([C@H]2O[C@@H](CO)[C@H](O)[C@H]2F)c(=O)[nH]c1=O	HepG2.2.15	-	0.1 µM
COC(=O)c1cc2cc(N)cc(OC)c2[nH]1	-	-	0.89 µg/mL
CSc1ncc(C(=O)NCCc2ccccn2)c(Nc2ccc3[nH]ncc3c2)n1	HepG2.2.15	-	<0.1 µg/mL
COC(=O)[C@H](C)NP(=O)(OC[C@H]1O[C@@H](n2cnc3c(N)ncnc32)CC1F)Oc1ccccc1	HepG2 2.2.15	-	0.018 µM
COC(=O)C(Cc1c[nH]c2ccccc12)NP(=O)(O)OCC1C/C1=C/n1cnc2c(N)ncnc21	2.2.15	-	0.49 µM
Nc1ncnc2c1ncn2[C@@H]1C=C[C@H](CO)O1	2.2.15	-	0.2 µM
COC(=O)C1=C(CN2CCOC3CN(C(=O)OC(C)(C)C)CC32)NC(c2ncc(F)cc2F)=N[C@H]1c1ccc(F)cc1Cl	HepG2.2.15	-	0.03 µM
CNC(=O)c1cnc(SC)nc1Nc1ccc2cn[nH]c2c1	HepG2.2.15	-	<0.1 µg/mL
Nc1ccn([C@@H]2CS[C@H](CO)O2)c(=O)n1	HepG2	-	0.04 µM
C=C1[C@H](CO)[C@@H](O)C[C@@H]1n1cnc2c(=O)[nH]c(N)nc21	2.2.15	-	0.0037 µM
COC(=O)C1=C(C)NC(c2ncccc2F)=N[C@H]1c1ccc(F)cc1Cl	HepG2.2.15	-	0.14 µM
COC(=O)c1ccc2cc(OC)cc(N)c2n1	-	-	0.34 µg/mL
O=c1[nH]c(=O)n(COCCO)cc1Br	B1	Mutation M204I	67 µM
CSc1ncc(C(N)=O)c(Nc2ccc3[nH]ncc3c2)n1	HepG2.2.15	-	~0.1 µg/mL
COC(=O)C1=C(CN2CCNC(=O)C2)NC(c2ncc(F)cc2F)=N[C@H]1c1ccc(F)cc1Cl	HepG2.2.15	-	0.04 µM
O=c1[nH]cnc2c1ncn2C[C@H]1C[C@H]1CO	2.2.15	-	>10 µM
COC(=O)[C@H](C)NP(=O)(OC[C@H]1O[C@@H](n2ccc3c(N)ncnc32)CC1F)Oc1ccccc1	HepG2 2.2.15	-	10 µM
CSc1ncc(C(=O)N(C)C)c(Nc2ccc3[nH]ncc3c2)n1	HepG2.2.15	-	~0.1 µg/mL
O=c1[nH]c(=O)n(COCCO)cc1Cl	B1	Mutation M204I	69 µM
COC(=O)C1=C(C)NC(c2ccccn2)=N[C@H]1c1ccc(F)cc1Cl	HepG2.2.15	-	0.4 µM
O=C(N/C(C(=O)N1CCCCC1)=C(/Cl)c1ccccc1)c1ccccc1	HepAD38	-	1.9 µM

5 of the rows above, restated:

compound	cells	strain or isolate	value
C=C1[C@H](CO)[C@@H](O)C[C@@H]1n1cnc2c(=O)[nH]c(N)nc21	2.2.15	-	0.0037 µM
O=c1[nH]c(=O)n(COCCO)cc1C(F)(F)F	B1	Mutation M204I	53 µM
Nc1ncnc2c1ncn2[C@@H]1C=C[C@H](CO)O1	2.2.15	-	0.2 µM
COC(=O)Cc1ccc2c(OC)cc(N)cc2n1	-	-	0.13 µg/mL
CSc1ncc(C(=O)NCCO)c(Nc2ccc3[nH]ncc3c2)n1	HepG2.2.15	-	<0.1 µg/mL